Pooled drug test results. Numbers come from NIAID ChemDB, via PubChem.

All rows: host cell toxicity; read-out: CC50

Blank or dashed fields: not listed here.

{"structure": "O=C(COCC(=O)N/N=C/c1ccccc1OCc1ccccc1)N/N=C/c1ccccc1OCc1ccccc1", "cells": "RAW 264.7", "method": "MTT", "result": "9.2 µM"}
{"structure": "CC(C)(C)NC(=O)NC(=S)NC(=O)c1ccc(-c2ccccc2Cl)o1", "cells": "MDCK", "method": "MTS", "result": ">300 µM"}
{"structure": "Cc1cc(NS(=O)(=O)c2ccc(N3C(=O)CSC3c3c(Cl)cccc3Cl)cc2)no1", "cells": "MCF-7", "method": "MTT", "result": ">100 µg/mL"}
{"structure": "Nc1ncnc2c1ncn2C[C@H]1COP(=O)(O)CO1", "cells": "HSB-2", "result": "146 µM"}
{"structure": "Nc1ncnc2c1ncn2CCOCP(=O)(O)O", "cells": "Duck hepatocytes", "result": "40 µM"}
{"structure": "Nc1nc2c(ncn2C[C@H](CO)OCP(=O)(O)O)c(=O)[nH]1", "cells": "HSB-2", "result": "87 µM"}
{"structure": "Nc1ccn(C[C@@H](CO)OCP(=O)(O)O)c(=O)n1", "cells": "P3HR-1", "result": "28 µg/mL"}
{"structure": "O=C(O)P(=O)(O)O", "cells": "HSB-2", "result": "818 µM"}
{"structure": "CN(c1ccc2c(c1)S(=O)(=O)N/C(=c1\\c(=O)c3cccn3n(Cc3ccc(F)cc3)c1=O)N2)S(C)(=O)=O", "cells": "HCV Huh-7/C24", "result": ">10 µM"}
{"structure": "Nc1ccn([C@@H]2C[C@@H](O)[C@H](CO)O2)c(=O)n1", "cells": "CV-1", "result": ">100 µM"}
{"structure": "CC1=C(Br)[C@H](O)[C@@]2(C=C1Br)CC(C(=O)NCC(O)c1cc(Br)c(OC[C@@H](O)CNC(=O)C3=NO[C@]4(C=C(Br)C(C)=C(Br)[C@@H]4O)C3)c(Br)c1)=NO2", "cells": "J774A.1 macrophages", "method": "resazurin", "result": ">200 µg/mL"}
{"structure": "CCOc1cc(Cl)nc(NC(=S)NC(=O)c2ccc(-c3ccccc3Cl)o2)n1", "cells": "MDCK", "method": "MTS", "result": ">300 µM"}
{"structure": "O=c1[nH]c(=S)n([C@@H]2O[C@H](CO)[C@@H](O)[C@@H]2O)cc1I", "cells": "RPMI8226", "result": "180 µM"}
{"structure": "CC/C=C\\C[C@H]1C(=O)CC[C@@H]1CC(=O)OC", "cells": "RAJI", "method": "ATP", "result": ">26 µM"}
{"structure": "Cc1ccccc1/C=N/NC(=O)COCC(=O)N/N=C/c1ccccc1C", "cells": "RAW 264.7", "method": "MTT", "result": "43.85 µM"}
{"structure": "Nc1ncc2c(ncn2COC(CO)CO)n1", "cells": "HSB-2", "result": "0.85 µM"}
{"structure": "Nc1ncnc2c1ncn2CCOCP(=O)(O)O", "cells": "C3", "result": ">200 µM"}
{"structure": "CC(=O)N1C(=O)C(=O)c2ccccc21", "cells": "RAW 264.7", "method": "MTT / absorbance", "result": "24.62 µM"}
{"structure": "CC(C)(C)NC(=O)NC(=S)NC(=O)c1ccc(-c2ccc([N+](=O)[O-])cc2)o1", "cells": "MDCK", "method": "MTS", "result": ">300 µM"}
{"structure": "CC1CCCC23CC4C(CC12C)C4(C)C3", "cells": "BJ", "method": "ATP", "result": ">26 µM"}
{"structure": "Nc1nc(N)c2ncn(CCOCP(=O)(O)O)c2n1", "cells": "C3", "result": ">200 µM"}
{"structure": "O=c1[nH]c(=S)n([C@@H]2O[C@H](CO)[C@@H](O)[C@@H]2O)cc1Cl", "cells": "RPMI8226", "result": "823 µM"}
{"structure": "C[S@@](=O)CCCCN=C=S", "cells": "HA", "method": "WST", "result": "11.17 µM"}
{"structure": "Nc1ncnc2c1ncn2C[C@@H](CO)OCP(=O)(O)O", "cells": "HSB-2", "result": "46 µM"}
{"structure": "CCOc1cc(C)nc2nc(=NC(=O)c3ccc(-c4ccccc4Cl)o3)sn12", "cells": "MDCK", "method": "MTS", "result": ">300 µM"}
{"structure": "COc1ccc2c(c1)S(=O)(=O)N/C(=c1\\c(=O)c3cccn3n(CCC(C)C)c1=O)N2", "cells": "HCV Huh-7/C24", "result": ">100 µM"}
{"structure": "CCOc1cc(OCC)nc(NC(=S)NC(=O)[C@H](c2ccc(Cl)cc2)C(C)C)n1", "cells": "MDCK", "method": "MTS", "result": ">300 µM"}
{"structure": "CN=C1CN=C(c2ccc[nH]2)c2cc(Cl)ccc2N1", "cells": "MOLT-4", "result": "1.8 µg/mL"}
{"structure": "O=C(COCC(=O)N/N=C/c1cccc([N+](=O)[O-])c1)N/N=C/c1cccc([N+](=O)[O-])c1", "cells": "RAW 264.7", "method": "MTT", "result": "38.46 µM"}
{"structure": "O=c1[nH]c(=O)n([C@H]2C[C@H](O)[C@@H](CO)O2)cc1F", "cells": "RPMI8226", "result": "32.3 µM"}
{"structure": "O=C(COCC(=O)N/N=C/c1ccc(F)cc1)N/N=C/c1ccc(F)cc1", "cells": "RAW 264.7", "method": "MTT", "result": "25.57 µM"}
{"structure": "CCOc1cc(OCC)n2sc(=NC(=O)c3ccc(Cl)nc3)nc2n1", "cells": "MDCK", "method": "MTS", "result": ">300 µM"}
{"structure": "NC1CCC(CN2CC(=O)N3C[C@@H](N(CCOc4ccccc4)S(=O)(=O)c4cccc(F)c4)C[C@H]3C2=O)CC1", "cells": "HEK", "result": ">10 µM"}
{"structure": "CC(=O)c1cc(O)c(O)c(=O)cc1C", "cells": "HepG2", "method": "MTS", "setting": "7 d", "result": "3.61 µM"}
{"structure": "O=C(COCC(=O)N/N=C/c1ccc(OCc2ccccc2)cc1)N/N=C/c1ccc(OCc2ccccc2)cc1", "cells": "RAW 264.7", "method": "MTT", "result": "31.56 µM"}
{"structure": "Nc1nc2c(ncn2COCCO)c(=O)[nH]1", "cells": "HSB-2", "result": "861 µM"}
{"structure": "NC(=O)c1ncn([C@@H]2O[C@H](CO)[C@@H](O)[C@H]2O)n1", "cells": "Ava5", "result": "22 µM"}
{"structure": "Cc1cn([C@@H]2C[C@@H](O)[C@H](CO)O2)c(=O)[nH]c1=O", "cells": "MA-104", "result": ">100 µM"}
{"structure": "CO[C@H]1/C=C/O[C@@]2(C)Oc3c(C)c(O)c4c(O)c(c(/C=N/N5CCN(C)CC5)c(O)c4c3C2=O)NC(=O)/C(C)=C\\C=C\\[C@H](C)[C@H](O)[C@@H](C)[C@@H](O)[C@@H](C)[C@H](OC(C)=O)[C@@H]1C", "cells": "HCT116", "method": "MTT", "result": ">100 µg/mL"}
{"structure": "CCOc1cc(OCC)nc(NC(=S)NC(=O)c2ccc(-c3ccccc3Cl)o2)n1", "cells": "MDCK", "method": "MTS", "result": ">300 µM"}
{"structure": "CC[C@H](CC[C@@H](C)[C@H]1CCC2C3CC=C4C[C@@H](O)CC[C@]4(C)[C@@]3(C)CC[C@@]21C)C(C)C", "cells": "RAJI", "method": "ATP", "result": ">26 µM"}
{"structure": "Nc1ncnc2c1ncn2[C@@H]1C[C@@H](O)[C@H](CO)O1", "cells": "MA-104", "result": ">100 µM"}
{"structure": "O=c1c2cccn2ccn1CCNC(=S)Nc1ccc(Br)cn1", "cells": "NSO", "result": "420 µM"}
{"structure": "C[C@H](Cn1cnc2c(N)nc(N)nc21)OCP(=O)(O)O", "cells": "HSB-2", "result": ">300 µM"}
{"structure": "CC1(C)CCC[C@]2(C)C3=CC4=CC(=O)C(=O)C=C4O[C@@]3(C)CC[C@@H]12", "cells": "J774A.1 macrophages", "method": "resazurin", "result": "50.4 µg/mL"}
{"structure": "C[C@H]1[C@H](C)CC[C@]2(C(=O)O)CC[C@]3(C)C(=CC[C@@H]4[C@@]5(C)CC[C@H](O)C(C)(C)[C@@H]5CC[C@]43C)[C@H]12", "cells": "BJ", "method": "ATP", "result": ">26 µM"}
{"structure": "CC(=O)O[C@H]1C(=O)[C@@]2(C)[C@H]([C@H](OC(=O)c3ccccc3)[C@]3(O)C[C@H](OC(=O)[C@H](O)[C@@H](NC(=O)c4ccccc4)c4ccccc4)C(C)=C1C3(C)C)[C@]1(OC(C)=O)CO[C@@H]1C[C@@H]2O", "cells": "MCF-7", "method": "MTT", "result": "0.0048 µg/mL"}
{"structure": "O=C(COCC(=O)N/N=C/c1ccccc1O)N/N=C/c1ccccc1O", "cells": "RAW 264.7", "method": "MTT", "result": "44.64 µM"}
{"structure": "O=c1ccn([C@H]2C[C@H](O)[C@@H](CO)O2)c(=S)[nH]1", "cells": "RPMI8226", "result": "288 µM"}
{"structure": "O=C1CCCN1CCCN1CC(=O)N2CC(N(CCOc3ccccc3)S(=O)(=O)c3cccc(F)c3)C[C@H]2C1=O", "cells": "HEK", "result": ">10 µM"}
{"structure": "Nc1ncnc2c1ncn2CCOCP(=O)(O)O", "cells": "P3HR-1", "result": "27 µg/mL"}
{"structure": "CC/C=C\\C[C@@H]1[C@@H](CC(=O)OC)CC[C@H]1O", "cells": "BJ", "method": "ATP", "result": ">26 µM"}
{"structure": "O=C1c2ccncc2C(=O)N1CCNC(=S)Nc1ccc(Br)cn1", "cells": "NSO", "result": "14 µM"}

A second listing of 6 rows from above:

structure | cells | method | setting | result
CC1=C(Br)[C@H](O)[C@@]2(C=C1Br)CC(C(=O)NCC(O)c1cc(Br)c(OC[C@@H](O)CNC(=O)C3=NO[C@]4(C=C(Br)C(C)=C(Br)[C@@H]4O)C3)c(Br)c1)=NO2 | J774A.1 macrophages | resazurin | - | >200 µg/mL
CC(=O)O[C@H]1C(=O)[C@@]2(C)[C@H]([C@H](OC(=O)c3ccccc3)[C@]3(O)C[C@H](OC(=O)[C@H](O)[C@@H](NC(=O)c4ccccc4)c4ccccc4)C(C)=C1C3(C)C)[C@]1(OC(C)=O)CO[C@@H]1C[C@@H]2O | MCF-7 | MTT | - | 0.0048 µg/mL
CCOc1cc(C)nc2nc(=NC(=O)c3ccc(-c4ccccc4Cl)o3)sn12 | MDCK | MTS | - | >300 µM
CC1CCCC23CC4C(CC12C)C4(C)C3 | BJ | ATP | - | >26 µM
C[C@H](Cn1cnc2c(N)nc(N)nc21)OCP(=O)(O)O | HSB-2 | - | - | >300 µM
O=C1c2ccncc2C(=O)N1CCNC(=S)Nc1ccc(Br)cn1 | NSO | - | - | 14 µM

CCn is the concentration with n% toxicity to the cells. Neighbouring rows are from separate reports.